According to paper PMC4833353 (PLoS Pathogens, 2016):

Target: classical cholera toxin B-pentamer (Vibrio cholerae (classical biotype))

classical cholera toxin B-pentamer showed a stoichiometry N of 5.
